Here are results for six molecules from publication PMC9606073 (Immunity, 2022).

What all share (details): both partners purified
For experiment [1], the target named is SARS-CoV RBD (SARS-CoV (GenBank AAP13441.1), UniProt P59594).
The target in another experiment is BtKY72-CoV RBD (BtKY72 bat sarbecovirus (KY352407), UniProt A0A3Q8AKM0). Description: ELISA. A general note: In an ELISA, binding on a coated surface is turned into a signal by an enzyme label.
Experiment [2] has as its target Khosta2 RBD (Bat SARS-like coronavirus Khosta-2). As to the kind of experiment: ELISA.
In experiment [3] the target is BM4831-CoV RBD (Bat coronavirus BM48-31/BGR/2008). As to the kind of experiment: ELISA.
Experiment [4] addresses SARS-CoV RBD (SARS-CoV (GenBank AAP13441.1), UniProt P59594). This is another data set of the same source.
For experiment [5], the target named is BM4831-CoV RBD (Bat coronavirus BM48-31/BGR/2008, strain). Description: SPR. Background: In SPR one partner is held on a chip, and binding of the other changes the refractive index at the surface.
The target of experiment [6] is Khosta2 RBD (Bat SARS-like coronavirus Khosta-2, strain). Description: SPR.

One may read the Kd as the constant that tells how readily two partners part at equilibrium. A high value points to weaker binding. The koff is a measure of how fast the partners let go of each other. Low values mean a long-lived complex, high ones a short-lived complex. The kon is the second-order rate constant of association. Low values mean slow association, high ones fast association.

B1: M8a-31 IgG (antibody, V domains shown)
VH: EVQLKQSVAELVRPGASVKVSCTASGFNIKNIYMHWVKQRPEQGLDWIGRIDPANGNSRYAPKFQDKATITADTSSNTAYLQLSSLTSEDTAIYYCADEGWGFANWGQGTLVTVSA
VL: DIVMTQSPSSLTVTAGEKVTMSCKSSQSLLNSGNQKNYLTWYQQKVGQPPKLLIYWASTRDPGVPDRFTGSGFGTDFTLTISSVQAEDLAVYYCQNDYSYPLTFGAGTKVELK
notes: copies: 2 + 2
Take B1: the binding result in the experiment with SARS-CoV RBD [1], with BtKY72-CoV RBD, with Khosta2 RBD [2] and with BM4831-CoV RBD [3] was “binds” each time.

B2: M8a-34 IgG (antibody, V domains shown)
VH: QVQLQQPGAELVKPGASVKMSCKASGYTFITYWITWVKQRPGQGLEWIGDIYPGGGRTNYNEKFKSKATLTVDTSSSTAYMQLRSLTSEDSAVYYCARYDGNYVGYYYAMDYWGQGTSVTVSS
VL: DIVLTQSPVSLAVSLGQRATISCRASESVDFYGNSFIYWYQQKPGQAPKLLIYRASNLESGIPARFSGSGSRTDFTLTIHPVEADDVATYYCQQSIEDPRTFGGGTKLEIK
notes: copies: 2 + 2
Consider B2, for which the binding result with SARS-CoV RBD [1], in the experiment with BtKY72-CoV RBD, with Khosta2 RBD [2] and with BM4831-CoV RBD [3] was “binds” in each case.

B3: M8a-6 IgG (antibody, V domains shown)
VH: QVQLQQPGTELVMPGASVKLSCKTSGYTFTHYWMHWVKQRPGEGLEWIGEIAPSDNYVKYNQKFKGKSTLSVDRSSSTAYMQLSSLTSEDSAVYFCARPDNSGYPVYFDYWGQGTSLTVSS
VL: DIVMTQSQKFMSTSLGDRVSISCKASQDVGTTVAWYQQKPGQSPKLLIYWASTRHTGVPDRFTGTGSGTDYTLTISSVAAEDLALYYCQQHYNTPYTFGGGTKLEIE
notes: copies: 2 + 2
B3: binding in the experiment with SARS-CoV RBD [4] was characterised by a dissociation constant (Kd) of 1100 nM.

B4: C118 IgG (antibody, V domains shown)
VH: QVQLVESGGGVVQPGRSLRLSCAASGFTFSNYAMHWVRQAPGKGLEWVAVISYDGSNKYYADSVKGRFTISRDNSKNTLYLQMNSLRAEDTAIYYCASGYTGYDYFVRGDYYGLDVWGQGTTVTVSS
VL: QPVLTQSPSASASLGASVKLTCTLSSGHSSYAIAWHQQQPEKGPRYLMKLNTDGSHSKGDGIPDRFSGSSSGAERYLTISSLQSEDEADYYCQTWGTGILVFGGGTKLTVL
notes: copies: 2 + 2
As for B4, in the experiment with SARS-CoV RBD [4], the Kd is 110 nM, the koff was found to be 0.0069 s⁻¹ and the kon amounted to 60000 M⁻¹ s⁻¹. Further, in the experiment with BM4831-CoV RBD [5], the Kd came to 7.9 nM, the koff worked out at 0.00085 s⁻¹ and the kon was found to be 110000 M⁻¹ s⁻¹. Moreover, in the experiment with Khosta2 RBD [6], binding was characterised by a dissociation constant (Kd) of 33 nM, the koff was 0.0011 s⁻¹ and the kon amounted to 34000 M⁻¹ s⁻¹.

B5: M8a-3 IgG (antibody, V domains shown)
VH: QVQLQQPGAELVLPGASVKLSCKASGYTFTNYWMHWVKQRPGHGLEWIGEIDPFDTYIKINQKFKGKSTLTVDTSSSTAYMQLSSLTSEDSAVYYCARPDSSGYPVYFDYWGQGTTLTVSS
VL: DIVMTQSHKFMSTSVGDRVSITCKASQDVGTYIAWYQQKPGQSPKLLIYWASTRHTGVPDRFTGSGSGTNYTLTISSVQAEDLALYHCQQHYSTPYTFGGGTKLEIK
notes: copies: 2 + 2
As for B5, in the experiment with SARS-CoV RBD [4], the Kd is 0.41 nM, the off-rate (koff) stood at 0.00015 s⁻¹ and the on-rate constant (kon) was 380000 M⁻¹ s⁻¹. In the experiment with Khosta2 RBD [6], this molecule had a Kd of 35 nM, a koff of 0.0046 s⁻¹ and a kon of 130000 M⁻¹ s⁻¹.

B6: M8a-3 IgG (antibody, V domains shown)
VH: B5 VH
VL: B5 VL
notes: copies: 2 + 2
For the molecule B6, the binding result with BtKY72-CoV RBD is recorded as “binds”.
